Measured values from several laboratories, pooled; numbers as filed in NIAID ChemDB.

All rows: whole-cell or culture tests; organism: Hepatitis B virus; measure: EC50

a–b is a range or a potency band.

smiles | strain | read by | value
C[C@]1(CO)CO[C@H](n2ccc(=O)[nH]c2=O)C1 | - | - | >100 µM
Nc1nc2c(ncn2[C@@H]2O[C@H](CO)C(O)(C(F)(F)F)[C@H]2O)c(=O)[nH]1 | - | - | ≥100 µM
Cc1c(O)cc2c(c1O)C(=O)[C@H](Cc1ccc(O)cc1)CO2 | - | ELISA / antigen | 2.58 µg/mL
O=C1c2cc3ccc4c(c3c(-c3ccc5c(c3)OCO5)c2CN1CCCO)OCO4 | - | - | 0.9 µM
Nc1ncn([C@H]2CC[C@H](CO)O2)c(=O)n1 | - | - | >100 µM
C=C1[C@H](CO)[C@@H](O)C[C@@H]1n1cnc2c(=O)[nH]c(N)nc21 | Genotype D | PCR | 0.0019 µM
C[C@]1(CO)CO[C@@H](n2cnc3c(=O)[nH]c(N)nc32)C1 | - | - | >100 µM
Nc1[nH]c(=O)c2ncn([C@@H]3O[C@H](CO)[C@@H](O)[C@H]3O)c2c1Cl | - | - | >10 µM
Cc1cn([C@H]2C[C@@](C)(CO)CO2)c(=O)[nH]c1=O | - | - | >100 µM
COC(=O)c1cc2c(OC)c(CC=C(C)C)c(N)cc2[nH]1 | - | - | 0.09 µg/mL
Nc1nc(F)cc2c1ncn2[C@H]1O[C@H](CO)[C@@H](O)[C@@H]1O | - | - | >10 µM
Nc1ncn([C@@H]2CC[C@H](CO)O2)c(=O)n1 | - | - | 1.5 µM
COC(=O)c1cc(OC)c2c(OC)cc(N)cc2n1 | - | - | 0.15 µg/mL
COC(=O)[C@]12C3=C([C@H](C)O[C@H]1[C@@H]1C4=C(C(=O)OCC4=C[C@@]45C6=C(C(=O)OCC6)[C@@H](C[C@@H]14)OC5C)[C@H]2O)[C@H](O)OCC3 | - | PCR | 1.53 µM
CC(C)Oc1ccc(-n2c(C(=O)NCc3ccc4nc[nH]c4c3)c3n(c2=O)CCN(C(=O)c2ccc(Br)c(Cl)c2)C3)cc1 | - | PCR | 0.5–5 µM
CC(C)CCCCCCCCCCCCCCOCCCOP(=O)(O)CO[C@H](CO)Cn1cnc2c(N)ncnc21 | - | hybridisation | 0.8 µM
CC1=CC[C@]2(C)CC[C@@]3(C)[C@H](C(C(C)C)=C[C@@H]3O)[C@H]2CC1 | - | - | 43 µg/mL
Nc1nccc2c1ncn2[C@@H]1O[C@H](CO)[C@@H](O)[C@H]1O | - | - | >10 µM
Nc1ncnc2c1ccn2[C@@H]1C[C@@H](O)[C@H](CO)O1 | - | - | 0.005–0.015 µM
COC(=O)c1ccc2cc(OC)cc(N)c2n1 | - | - | 0.34 µg/mL
Nc1nc(F)c(F)c2ncn([C@@H]3O[C@H](CO)[C@@H](O)[C@H]3O)c12 | - | - | 10 µM
O=C(NC1CC2(C1)CC(c1nc3cc(Cl)ccc3o1)C2)C1CCS(=O)(=O)CC1 | - | - | 6.7 µg/mL
C=C1[C@H](CO)[C@H]1Cn1cnc2c(=O)[nH]c(N)nc21 | - | - | >100 µM
COC(=O)c1cc2c(OC)cc(N)cc2[nH]1 | - | - | 6.14 µg/mL
C=C1[C@H](CO)[C@H]1Cn1cnc2c(N)nc(N)nc21 | - | - | >100 µM
CC(=O)Nc1ccc([C@@H](C)N2CCn3nc4c(c3C2=O)CN(C(=O)c2ccc(Cl)c(C(F)(F)F)c2)[C@H](C)C4)cc1 | - | PCR | 0.006 µM
CC1O[C@H]2[C@@H]3C4=C(C(=O)OCC4=C[C@@]45C6=C(C(=O)OCC6)[C@@H](C[C@@H]34)OC5C)[C@H]3O[C@H](O)[C@@H]1C1=CCOC(=O)[C@@]132 | - | PCR | 5.34 µM
C=C1[C@H](CO)[C@H]1Cn1cnc2c(N)ncnc21 | - | - | >100 µM
CNc1nc(F)cc2c1ncn2[C@@H]1O[C@H](CO)[C@@H](O)[C@H]1O | - | - | >10 µM

Again, the opening 3 rows:

smiles,strain,read by,value
C[C@]1(CO)CO[C@H](n2ccc(=O)[nH]c2=O)C1,-,-,>100 µM
Nc1nc2c(ncn2[C@@H]2O[C@H](CO)C(O)(C(F)(F)F)[C@H]2O)c(=O)[nH]1,-,-,≥100 µM
Cc1c(O)cc2c(c1O)C(=O)[C@H](Cc1ccc(O)cc1)CO2,-,ELISA / antigen,2.58 µg/mL

ECn: concentration that inhibits the pathogen or its effect by n%. An empty or dashed field is not shown. Conditions beyond the fields shown may differ between rows.